Measured values from several laboratories, pooled; numbers as filed in NIAID ChemDB.

ICn: concentration for n% inhibition. Blank or dashed fields: not listed here. CCn: concentration that lowers growth or viability of the cells by n%. ECn: concentration that inhibits the pathogen or its effect by n%. Rows are shuffled and stem from different studies.

| compound | test | species | strain or isolate | cell line | target | read-out | result |
|---|---|---|---|---|---|---|---|
| O=C(O)c1ccc2c(c1)nc(-c1ccccn1)n2C1CCCC1 | target | Poliovirus | - | - | RNA-dependent RNA polymerase | IC50 | >25 µM |
| NC(=O)c1ncn([C@@H]2O[C@H](CO)[C@@H](O)[C@H]2O)n1 | culture | Rift valley fever virus | Zagazig 501 | VERO 76 | - | EC50 | 80 µg/mL |
| O=c1[nH]cnc2c1ncn2[C@H]1CC[C@@H](CO)O1 | culture | Vaccinia virus | - | VERO | - | EC50 | >423 µM |
| CC(=O)NC(C(=O)NCCc1ccccc1)[C@H]1CC(C(=O)O)C[C@@H]1N=C(N)N | target | Influenza A virus (H6N2) | - | - | Neuraminidase | IC50 | 6.4 µM |
| CC(C)[C@H](Cc1ccc(OCC(=O)O)cc1)NC(=O)c1ccc2c(c1)nc(-c1ccoc1)n2C1CCCCC1 | target | Poliovirus | - | - | RNA-dependent RNA polymerase | IC50 | >25 µM |
| Nc1nc2c(ncn2C[C@@H](CO)OCP(=O)(O)O)c(=O)[nH]1 | toxicity | - | - | PHK | - | CC50 | 7.5 µg/mL |
| CC(=O)NC(C(=O)NC(C)C)[C@H]1CC(C(=O)O)C[C@@H]1N=C(N)N | target | Influenza A virus (H6N2) | - | - | Neuraminidase | IC50 | 1.34 µM |
| Nc1nc(NC2CC2)c2ncn(CCOCP(=O)(O)O)c2n1 | toxicity | - | - | PHK | - | CC50 | 1.3 µg/mL |
| Cc1cc(O)cc(C)c1CC(NC(=O)c1ccc2c(c1)nc(-c1ccoc1)n2C1CCCCC1)C(=O)O | target | Poliovirus | - | - | RNA-dependent RNA polymerase | IC50 | >25 µM |
| Nc1ccn([C@@H]2CS[C@H](CO)O2)c(=O)n1 | culture | Vaccinia virus | - | VERO | - | EC50 | >436 µM |
| NC1=NC(N)N(CCOCP(=O)(O)O)C=C1 | toxicity | - | - | PHK | - | CC50 | 17.7 µg/mL |
| CCCCN(C)C(=O)C(NC(C)=O)[C@H]1CC(C(=O)O)C[C@@H]1N=C(N)N | target | Influenza A virus (H6N2) | - | - | Neuraminidase | IC50 | 2.4 µM |
| Cc1cc(OCC(=O)O)cc(C)c1CC(NC(=O)c1ccc2c(c1)nc(-c1ccoc1)n2C1CCCCC1)C(=O)O | target | Poliovirus | - | - | RNA-dependent RNA polymerase | IC50 | >25 µM |
| NC(=O)c1csc([C@@H]2O[C@H](CO)[C@@H](O)[C@H]2O)n1 | culture | Japanese encephalitis virus | Nakayama | VERO | - | EC50 | 73 µg/mL |
| CN(C)CCNC(=O)[C@H](Cc1ccc(O)cc1)NC(=O)c1ccc2c(c1)nc(-c1ccoc1)n2C1CCCCC1 | target | Poliovirus | - | - | RNA-dependent RNA polymerase | IC50 | >25 µM |
| Nc1nc(N)c2ncn(CCOCP(=O)(O)O)c2n1 | toxicity | - | - | PHK | - | CC50 | 31.3 µg/mL |
| Nc1nc([C@H](Cc2ccc(-c3nn[nH]n3)cc2)NC(=O)c2ccc3c(c2)nc(-c2ccoc2)n3C2CCCCC2)cs1 | target | Poliovirus | - | - | RNA-dependent RNA polymerase | IC50 | >25 µM |
| CC(=O)NC(C(=O)N1CCSCC1)[C@H]1CC(C(=O)O)C[C@@H]1N=C(N)N | target | Influenza A virus (H6N2) | - | - | Neuraminidase | IC50 | 0.23 µM |
| O=C(N[C@@H](Cc1ccc(O)cc1)C(=O)Nc1cccnc1)c1ccc2c(c1)nc(-c1ccoc1)n2C1CCCCC1 | target | Poliovirus | - | - | RNA-dependent RNA polymerase | IC50 | >25 µM |
| Nc1ccn(C[C@H]2COP(=O)(O)CO2)c(=O)n1 | culture | Camelpox virus | - | VERO 76 | - | EC50 | 46 µM |
| COC(=O)[C@H](Cc1c[nH]c2ccc(OCC(=O)O)cc12)NC(=O)c1ccc2c(c1)nc(-c1ccoc1)n2C(C)C | target | Poliovirus | - | - | RNA-dependent RNA polymerase | IC50 | >25 µM |
| Nc1ccn(C[C@@H](CO)OCP(=O)(O)O)c(=O)n1 | culture | Vaccinia virus | NYC | HFF | - | EC50 | 10.1 µM |
| CC(=O)NC(C(=O)N1CCCCC1)[C@H]1CC(C(=O)O)C[C@@H]1N=C(N)N | target | Influenza A virus (H6N2) | - | - | Neuraminidase | IC50 | 0.15 µM |
| Nc1nc(Cl)c2ncn(CCOCP(=O)(O)O)c2n1 | toxicity | - | - | PHK | - | CC50 | 0.9 µg/mL |
| O=c1cnn([C@@H]2O[C@H](CO)[C@@H](O)[C@H]2O)c(=O)[nH]1 | culture | Monkeypox virus | - | VERO 76 | - | EC50 | 4 µM |
| O=C(O)COc1ccc2[nH]cc(C[C@H](NC(=O)c3ccc4c(c3)nc(-c3ccccn3)n4C3CCCCC3)C(=O)O)c2c1 | target | Poliovirus | - | - | RNA-dependent RNA polymerase | IC50 | >25 µM |
| Nc1cc(OCCOCP(=O)(O)O)nc(N)n1 | toxicity | - | - | PHK | - | CC50 | 21.7 µg/mL |

The first 4 rows once more:

{"compound": "O=C(O)c1ccc2c(c1)nc(-c1ccccn1)n2C1CCCC1", "test": "target", "species": "Poliovirus", "target": "RNA-dependent RNA polymerase", "read-out": "IC50", "result": ">25 µM"}
{"compound": "NC(=O)c1ncn([C@@H]2O[C@H](CO)[C@@H](O)[C@H]2O)n1", "test": "culture", "species": "Rift valley fever virus", "strain or isolate": "Zagazig 501", "cell line": "VERO 76", "read-out": "EC50", "result": "80 µg/mL"}
{"compound": "O=c1[nH]cnc2c1ncn2[C@H]1CC[C@@H](CO)O1", "test": "culture", "species": "Vaccinia virus", "cell line": "VERO", "read-out": "EC50", "result": ">423 µM"}
{"compound": "CC(=O)NC(C(=O)NCCc1ccccc1)[C@H]1CC(C(=O)O)C[C@@H]1N=C(N)N", "test": "target", "species": "Influenza A virus (H6N2)", "target": "Neuraminidase", "read-out": "IC50", "result": "6.4 µM"}